Compound potency records, mixed from different reports. Data source: NIAID ChemDB in PubChem.

Common to all: host cell toxicity; cell line: PBMC; read-out: CC50

An empty or dashed field is not shown. CCn: concentration that lowers growth or viability of the cells by n%. Rows are shuffled and stem from different studies.

smiles	method	result
COC(=O)c1ccc2c(c1)CN(c1nn3c(C)nnc3c3ccccc13)CC2		6.72 µM
CCOC(=O)[C@H](C)NP(=O)(OCC(F)(F)C(F)(F)Cn1cc(C)c(=O)[nH]c1=O)Oc1ccccc1		>100 µM
O=C(NCCc1ccc2c(n1)NCCC2)Nc1ccc(C(F)(F)F)cc1		0.6 µM
CCCCCCCCCCCCCCCCOCCCOP(=O)(C/C=C(\C)Cn1cc(-c2ccc(CCCCC)cc2)nn1)OCOC(=O)OC(C)C	absorbance	50.5 µM
Cc1c(Cl)ccc2cc(/C=C/C(=O)c3ccc(Cl)cc3)c(Cl)nc12	MTT	22.99 µM
Cc1cn([C@H]2CO[C@@H](COP(=O)(N[C@@H](C)C(=O)OC(C)(C)C)Oc3ccccc3)O2)c(=O)[nH]c1=O	MTT	>100 µM
COc1ccc2c(c1)CCN(c1nn3c(C)nnc3c3ccccc13)C2		10 µM
CN1c2c(-c3ccccc3)nn(CC(=O)N/N=C/c3cccc(Br)c3)c2-c2ccccc2S1(=O)=O		31.8 µM
O=C(NCCc1ccc2c(n1)NCCC2)NCc1ccc(Cl)nc1		50 µM
Nc1nccc2c1ncn2[C@@H]1C[C@H](CO)[C@@H](O)[C@H]1O		10 µM
CC[C@@]1(O)C(=O)OCc2c1cc1n(c2=O)Cc2cc3c(CN(C)C)c(O)ccc3nc2-1		>0.125 µM
CCCCCCCC/C=C\CCCCCCCCOP(=O)(N[C@@H](C)C(=O)OC)OC[C@@H]1OC[C@H](n2cc(C)c(=O)[nH]c2=O)O1	MTT	31.3 µM
CC(C)OC(=O)[C@H](C)NP(=O)(OCC(F)(F)C(F)(F)C(F)(F)Cn1cnc2c(N)ncnc21)Oc1ccccc1		>100 µM
FC(F)(F)Oc1ccc(CNC(=S)NCCc2ccc3c(n2)NCCC3)cc1		0.52 µM
CN1c2c(-c3ccccc3)nn(CC(=O)N/N=C/c3ccc(Cl)c(Cl)c3)c2-c2ccccc2S1(=O)=O		38 µM
Cc1csc(/C=C/c2cc3ccc(Cl)c(C)c3nc2Cl)c1	MTT	55.99 µM
OC[C@@H]1C[C@H](F)[C@H](n2cnc3c(NOCc4ccccc4)ncnc32)O1		>80 µM
CN(C)CCNc1cc(-c2ccc3ccccc3c2)nc2ccccc12		10 µM
COC(=O)[C@H](C)NP(=O)(OC[C@@H]1OC[C@H](n2cc(C)c(=O)[nH]c2=O)O1)Oc1ccccc1Cl	MTT	>100 µM
COc1ccc(/C=N/NC(=O)Cn2nc(-c3ccccc3)c3c2-c2ccccc2S(=O)(=O)N3C)cc1		>100 µM
COC(=O)[C@H](Cc1ccccc1)NP(=O)(OC[C@@H]1OC[C@H](n2cc(C)c(=O)[nH]c2=O)O1)Oc1ccccc1	MTT	>100 µM
Oc1cc2c(cc1O)CN(c1nn3c(C4CC4)nnc3c3ccccc13)CC2		5.57 µM
Nc1nc2c(ncn2CC(F)(F)C(F)(F)CO)c(=O)[nH]1		>100 µM
CN(C)CCNc1c2c(nc3ccccc13)-c1ccsc1CC2		100 µM
O=C(NCCc1ccc2c(n1)NCCC2)Nc1cccc(-c2ccsc2)n1		5.4 µM
Cc1nnc2ccc(N3CCc4ccccc4C3)nn12		50.8 µM
CNc1ncnc2c1ncn2[C@@H]1O[C@H](CO)C[C@@H]1F		>80 µM
CCOC(=O)[C@H](C)NP(=O)(OCC(F)(F)C(F)(F)Cn1ccc(N)nc1=O)Oc1ccccc1		>100 µM
Cc1cn([C@H]2CO[C@@H](CO[P@]3(=O)OCC[C@H](c4ccccc4)O3)O2)c(=O)[nH]c1=O	MTT	>100 µM
Cc1c(Cl)ccc2cc(/C=C/C(=O)c3cccc(Br)c3)c(Cl)nc12	MTT	34.01 µM
C/C(=C\CP(=O)(OCOC(=O)OC(C)C)OCOC(=O)OC(C)C)Cn1cc(C(C)(C)C)nn1	absorbance	28.3 µM
CONc1ncnc2c1ncn2[C@@H]1O[C@H](CO)C[C@@H]1F		>80 µM
COc1ccc(C(=O)/C=C/c2cc3ccc(Cl)c(C)c3nc2Cl)cc1	MTT	50.5 µM
O=C(NCCc1ccc2c(n1)NCCC2)NCC1CC1		50 µM
[N-]=[N+]=N[C@H]1C[C@H](n2ccc(=O)[nH]c2=O)O[C@@H]1COP(=O)(O)OP(=O)(O)O[C@H]1O[C@H](CO)[C@H](O)[C@H](O)[C@H]1O		100 µM
COC(=O)[C@@H](NP(=O)(OC[C@@H]1OC[C@H](n2cc(C)c(=O)[nH]c2=O)O1)Oc1ccccc1)C(C)C	MTT	>100 µM
Nc1nccc2c1ncn2[C@@H]1O[C@H](CO)[C@@H](O)[C@H]1O		9.91 µM
CNC(=O)c1cn(C/C(C)=C/CP(=O)(OCOC(=O)OC(C)C)OCOC(=O)OC(C)C)nn1	absorbance	78.3 µM
Cc1ccc(/C=C/c2cc3ccc(Cl)c(C)c3nc2Cl)s1	MTT	51.89 µM
CN1c2c(-c3ccccc3)nn(CC(=O)N/N=C/c3cccc(Cl)c3)c2-c2ccccc2S1(=O)=O		51.6 µM
CCNc1ncnc2c1ncn2[C@@H]1O[C@H](CO)C[C@@H]1F		>80 µM
Nc1ccn(CC(F)(F)C(F)(F)CO)c(=O)n1		>100 µM
O=C(O)[C@H]1O[C@@H](Oc2cc(O)cc(/C=C/c3ccc(O)cc3)c2)[C@H](O)[C@@H](O)[C@@H]1O	MTT	>300 µM
Cc1nnc2c3ccccc3c(N3CCc4ccc(C#N)cc4C3)nn12		19.9 µM
C/C(=C\CP(=O)(OCOC(=O)OC(C)C)OCOC(=O)OC(C)C)Cn1cc(C(=O)O)nn1	absorbance	>100 µM
COC(=O)[C@H](C)NP(=O)(OC[C@@H]1OC[C@H](n2cc(C)c(=O)[nH]c2=O)O1)Oc1ccc(C)cc1	MTT	74.3 µM
CN(C)CCNc1nc(-c2ccccc2)nc2ccccc12		70 µM

Again, the opening 5 rows:

smiles	method	result
COC(=O)c1ccc2c(c1)CN(c1nn3c(C)nnc3c3ccccc13)CC2		6.72 µM
CCOC(=O)[C@H](C)NP(=O)(OCC(F)(F)C(F)(F)Cn1cc(C)c(=O)[nH]c1=O)Oc1ccccc1		>100 µM
O=C(NCCc1ccc2c(n1)NCCC2)Nc1ccc(C(F)(F)F)cc1		0.6 µM
CCCCCCCCCCCCCCCCOCCCOP(=O)(C/C=C(\C)Cn1cc(-c2ccc(CCCCC)cc2)nn1)OCOC(=O)OC(C)C	absorbance	50.5 µM
Cc1c(Cl)ccc2cc(/C=C/C(=O)c3ccc(Cl)cc3)c(Cl)nc12	MTT	22.99 µM